Experimental data: PubChem BioAssay AID504761 (Drosophila RNAi Screening Center, 2011)
Assay: 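Genome-wide fly cell screen for genes dengue virus requires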 (primary screen). Cell system: D.Mel-2 cells from Drosophila. Knock-down reagent: long dsRNA against Drosophila genes. Challenge: infection with dengue virus type 2; dose and infection time not stated. Detection: 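Cells stained for dengue envelope protein and imaged; percent of infected cells per well on duplicate plates, ranked by infection, with stained nuclei counted for cell number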. Direction: infection score: higher = more virus-infected cells. Hit rule: 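Very low infection ranking in both replicate wells (chance probability at most 0.065), then a retest showing infection dropped 1.5-fold or more at p below 0.05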. Calls: active = confirmed: knock-down lowers infection; inactive = not picked or not confirmed.
In all, the deposit lists about 22,000 reagents; shown is a random part of those with a known target gene and a result. Over the whole deposit, 116 (0.52%) are marked active. 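Calls depend on retest data that are not deposited; infection was ranked per plate without normalising between plates; the unit of the infection score is not given.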 A number with no mark means an inactive call. A plus sign joins genes that one reagent is predicted to hit. Not all columns of the deposit are shown. The record does not give: the amount of reagent, the time to read-out.

With knock-down of Osi15 (Osiris 15) [DRSC12178], the record shows infection score, replicate 1 = 3.85.
Obp83cd (Odorant-binding protein 83cd) [DRSC12267] gave infection score, replicate 1 = 3.37.
After knock-down of Pal1 + Pdrg1 [DRSC06587], the record shows infection score, replicate 1 = 6.77.
Silencing of CG33232 (retired record) [DRSC08187] gave: infection score, replicate 1 = 9.52.
After knock-down of CG33232 (retired record) [DRSC08495], the record shows infection score, replicate 1 = 6.56.
After knock-down of l(2)03659 (lethal (2) 03659) [DRSC07269], the screen gave infection score, replicate 1 = 5.63.
l(2)03659 (lethal (2) 03659) [DRSC07638] gave infection score, replicate 1 = 2.04.

No new results follow: an excerpt of the list.
CG33232 (retired record) [DRSC08187]: infection score, replicate 1 = 9.52
CG33232 (retired record) [DRSC08495]: infection score, replicate 1 = 6.56
l(2)03659 (lethal (2) 03659) [DRSC07269]: infection score, replicate 1 = 5.63

Additional entries follow:
Against GluRIA (Glutamate receptor IA) [DRSC11176], the entry reads infection score, replicate 1 = 2.63.
Silencing of Gmppb (GDP-mannose pyrophosphorylase B) [DRSC12169] came out at: infection score, replicate 1 = 6.22.
CG31729 [DRSC02524] scored infection score, replicate 1 = 22.4.
After knock-down of CG31729 [DRSC02946], the screen gave infection score, replicate 1 = 7.87.
Depletion of CG31729 [DRSC25841] came out at: infection score, replicate 1 = 3.12.
Silencing of DCTN1-p150 (Dynactin 1, p150 subunit) [DRSC11175] gave: infection score, replicate 1 = 5.86.
Depletion of DCTN1-p150 (Dynactin 1, p150 subunit) [DRSC23441] came out at: infection score, replicate 1 = 2.26.
After knock-down of rdo (reduced ocelli) [DRSC02452], the record shows infection score, replicate 1 = 20.2.
Depletion of rdo (reduced ocelli) [DRSC25572] gave: infection score, replicate 1 = 3.02.
CG3246 [DRSC00584] scored infection score, replicate 1 = 6.88.
CG7737 [DRSC07033] scored infection score, replicate 1 = 15.6.
After knock-down of Gar1 (Gar1 ribonucleoprotein) [DRSC04441], the screen gave infection score, replicate 1 = 14.8.
For Gar1 (Gar1 ribonucleoprotein) [DRSC25331], the values are infection score, replicate 1 = 3.57.
Knock-down of RpL4 (Ribosomal protein L4) [DRSC16833] resulted in: infection score, replicate 1 = 3.23.
Silencing of RpL4 (Ribosomal protein L4) [DRSC25032] resulted in: infection score, replicate 1 = 2.91.
